One assay concerns Aspergillus clavatus. As to the kind of experiment: Antifungal activity against Aspergillus clavatus MTCC 1323 at 50 mg/ml after 24 hrs by disk agar diffusion technique. A general note: A growth-free zone around the sample is the usual read-out of agar diffusion tests.
Another assay relates to Streptococcus pyogenes. Description: Antibacterial activity against Streptococcus pyogenes MTCC 442 at 50 mg/ml after 24 hrs by disk agar diffusion technique.
The next assay concerns Pseudomonas aeruginosa. Description: Antibacterial activity against Pseudomonas aeruginosa MTCC 424 at 50 mg/ml after 24 hrs by disk agar diffusion technique.
Another assay concerns Staphylococcus aureus. As to the kind of experiment: Antibacterial activity against Staphylococcus aureus MTCC 96 at 50 mg/ml after 24 hrs by disk agar diffusion technique.
The next assay relates to Escherichia coli. Description: Antibacterial activity against Escherichia coli MTCC 443 at 50 mg/ml after 24 hrs by disk agar diffusion technique.
The next assay deals with Candida albicans. Description: Antifungal activity against Candida albicans MTCC 227 at 50 mg/ml after 24 hrs by disk agar diffusion technique.

This passage reports diameter of the inhibition zone (DIZ) results from ChEMBL document CHEMBL2424540, “Synthesis and pharmacological evaluation of novel 1-(piperidin-4-yl)-1H-benzo[d]imidazol-2(3H)-one derivatives as potential antimicrobial agents” (2013).

Molecules are shown by their SMILES. Only a part of the results on these compounds is given; other tests are left out.

`CCCCn1c(=O)n(C2CCN(C3CCc4cc(OC)c(OC)cc43)CC2)c2ccc(Cl)cc21` (centres undefined): the diameter of the inhibition zone (DIZ) worked out at 24 mm with Aspergillus clavatus; 14 mm with Streptococcus pyogenes; 11 mm in the assay with Pseudomonas aeruginosa; 15 mm in the assay with Staphylococcus aureus; 11 mm in the assay with Escherichia coli; 19 mm in the assay with Candida albicans.

As for `CCn1c(=O)n(C2CCN(C3CCc4cc(OC)c(OC)cc43)CC2)c2ccc(Cl)cc21` (centres undefined), the diameter of the inhibition zone (DIZ) in the assay on Aspergillus clavatus amounted to 18 mm; with Streptococcus pyogenes, 16 mm; in the assay on Pseudomonas aeruginosa it was 10 mm; with Staphylococcus aureus it was 19 mm; in the assay with Escherichia coli it was 13 mm; in the assay with Candida albicans it was 19 mm.

With `COc1cc2c(cc1OC)C(N1CCC(n3c(=O)n(CC(C)C)c4cc(Cl)ccc43)CC1)CC2` (centres undefined), the diameter of the inhibition zone (DIZ) with Aspergillus clavatus stood at 14 mm; in the assay with Streptococcus pyogenes it was 12 mm; in the assay with Pseudomonas aeruginosa it was 12 mm; in the assay on Staphylococcus aureus it was 12 mm; with Escherichia coli, 13 mm; in the assay on Candida albicans, 17 mm.

Turning to `CCCn1c(=O)n(C2CCN(C3CCc4cc(OC)c(OC)cc43)CC2)c2ccc(Cl)cc21` (centres undefined), the diameter of the inhibition zone (DIZ) with Aspergillus clavatus was found to be 25 mm; with Streptococcus pyogenes, 11 mm; with Pseudomonas aeruginosa, 9 mm; in the assay on Staphylococcus aureus it was 13 mm; in the assay with Escherichia coli, 19 mm; in the assay with Candida albicans, 18 mm.
